Reference: patent US20140295402A1, “METHODS AND MATERIALS FOR PROLONGING USEFUL STORAGE OF RED BLOOD CELL PREPARATIONS AND PLATELET PREPARATIONS” (priority 2011, published 2014)

Assay: pH of platelet-rich plasma on exposure to CO2
Set-up: species or system human

SMILES: O=C=O [CO2]
- pH of PRP after equilibration with CO2 (99% CO2 under positive flow, typically within 60 seconds, fall from 7.2): 6.4
- pH of PRP after CO2 (99.9% CO2 at air/fluid interface for approximately 60 seconds, dropped from average 7.4): 6.4
